Pooled drug test results. Numbers come from NIAID ChemDB, via PubChem.

All rows: growth or infection tests; organism: Mycobacterium avium intracellulare

An empty or dashed field is not shown. Neighbouring rows are from separate reports. Percent inhibition refers to the dose given; in toxicity tests it is the harm to the cells. A number after MIC or MFC names an inhibition level or a share of isolates.

| compound | measure | dose | strain or isolate | result |
|---|---|---|---|---|
| CC[C@@H](C)N1CCN(c2cc(=O)c3nc4c(oc3c2)c2c(=O)c3c(O)c(C)c5c(c34)=C(O)[C@@](C)(O/C=C/[C@H](OC)[C@@H](C)[C@@H](OC(C)=O)[C@H](C)[C@H](O)[C@H](C)[C@@H](O)[C@@H](C)/C=C/C=C(/C)C(=O)N2)O5)CC1 | MIC90 | - | 31 strains | 0.1 µg/mL |
| N[C@@H]1CN(c2c(F)cc3c(=O)c(C(=O)O)cn([C@@H]4C[C@@H]4F)c3c2Cl)CC12CC2 | MIC50 | - | 20 strains | 6.25 µg/mL |
| CO[C@H]1/C=C/O[C@@]2(C)Oc3c(C)c(O)c4c(=O)c(c5oc6cc(N7CCN(CC(C)C)CC7)cc(=O)c6nc5c4c3=C2O)NC(=O)/C(C)=C\C=C\[C@H](C)[C@H](O)[C@@H](C)[C@@H](O)[C@@H](C)[C@H](OC(C)=O)[C@@H]1C | MIC90 | - | 20 strains | 0.1 µg/mL |
| CNC1CCCN(c2c(F)cc3c(=O)c(C(=O)O)cn(C4CC4)c3c2OC)C1 | MIC50 | - | 16 isolates | 50 µg/mL |
| CC[C@@H](CO)NCCN[C@@H](CC)CO | MIC | - | N-752 (HIV-) | 0.5 µg/mL |
| Cc1c(F)c(N2CCNC(C)C2)cc2c1c(=O)c(C(=O)O)cn2C1CC1 | MIC50 | - | 16 isolates | 12.5 µg/mL |
| NC[C@H]1O[C@H](O[C@H]2[C@H](O)[C@@H](O[C@H]3O[C@H](CO)[C@@H](O)[C@H](N)[C@H]3O)[C@H](N)C[C@@H]2N)[C@H](O)[C@@H](O)[C@@H]1O | MIC | - | N-919 (HIV-) | 0.5 µg/mL |
| C[C@H]1COc2c(N3CCN(C)CC3)c(F)cc3c(=O)c(C(=O)O)cn1c23 | MIC50 | - | 20 strains | 25 µg/mL |
| CN1CCN(c2c(F)cc3c(=O)c(C(=O)O)cn(CCF)c3c2F)CC1 | MIC90 | - | 16 isolates | >100 µg/mL |
| NNC(=O)c1ccncc1 | MIC50 | - | 20 strains | 6.25 µg/mL |
| CO[C@H]1/C=C/O[C@@]2(C)Oc3c(C)c(O)c4c(=O)c(c5oc6cc(N7CCN(CC(C)C)CC7)cc(=O)c6nc5c4c3=C2O)NC(=O)/C(C)=C\C=C\[C@H](C)[C@H](O)[C@@H](C)[C@@H](O)[C@@H](C)[C@H](OC(C)=O)[C@@H]1C | MIC90 | - | 31 strains | 0.1 µg/mL |
| CO[C@H]1/C=C/O[C@@]2(C)Oc3c(C)c(O)c4c(O)c(c5c(c4c3C2=O)NC2(CCN(CC(C)C)CC2)N=5)=NC(=O)/C(C)=C\C=C\[C@H](C)[C@H](O)[C@@H](C)[C@@H](O)[C@@H](C)[C@H](OC(C)=O)[C@@H]1C | MIC90 | - | 20 isolates | 0.5 µg/mL |
| N[C@@H]1CN(c2c(F)cc3c(=O)c(C(=O)O)cn([C@@H]4C[C@@H]4F)c3c2Cl)CC12CC2 | MIC90 | - | 16 isolates | 25 µg/mL |
| C[C@H]1COc2c(N3CCN(C)CC3)c(F)cc3c(=O)c(C(=O)O)cn1c23 | MIC50 | - | 20 strains | 25 µg/mL |
| CCn1cc(C(=O)O)c(=O)c2cc(F)c(N3CCNC(C)C3)c(F)c21 | MIC50 | - | 16 isolates | 100 µg/mL |
| CCc1cc(C(N)=S)ccn1 | inhibition | 10 µg/mL | Serovar 8 | 100% |

For reference, 2 entries again:

compound	measure	dose	strain or isolate	result
N[C@@H]1CN(c2c(F)cc3c(=O)c(C(=O)O)cn([C@@H]4C[C@@H]4F)c3c2Cl)CC12CC2	MIC50	-	20 strains	6.25 µg/mL
CC[C@@H](CO)NCCN[C@@H](CC)CO	MIC	-	N-752 (HIV-)	0.5 µg/mL